Molecules are shown by their SMILES.

In this assay the test system is Pseudoperonospora cubensis. Put plainly: Control test of plant disease caused by Pseudoperonospora cubensis (cucumber, foliage spray; Test Examples 2 and 7). It is filed as in vivo.
[1] abbreviates: cucumber foliage spray, effective component 50 ppm, degree of disease after 5 days.

Consider `Cc1snnc1C(=NOCc1csc(N)n1)c1ccccc1` [8-(a)-1], for which the Evaluation result under setting [1] is listed as “B (grade “B” was selected when the number of diseased plants, which include plants with lesions or withered plants, is around 10% among the total numbers of plants)”.

Consider `Cc1snnc1/C(=N\OCc1csc(NC(=O)C(C)C)n1)c1ccc(Cl)c(Cl)c1` [13-(a)-8], for which, for the setting “Test Example 7, same method as Test Example 2, Table 98”, the Evaluation entry is “B (grade “B” was selected when the number of diseased plants, which include plants with lesions or withered plants, is around 10% among the total numbers of plants)”.

For the molecule `Cc1snnc1/C(=N\OCc1csc(NC(=O)C(C)C)n1)c1cccc(Cl)c1` [13-(a)-2], the Evaluation result under setting [1] is “B (grade “B” was selected when the number of diseased plants, which include plants with lesions or withered plants, is around 10% among the total numbers of plants)”.

(Values after patent US6340697B1, “Oxime derivatives and agricultural chemicals containing the same” (Dainippon Ink and Chemicals, Inc., priority 1997, dated 2002).)
